Source: ChEMBL document CHEMBL5505957 (Eur J Med Chem, 2024)

Chains of the proteins cited; added tags and fusions are not shown.
Protease (Human immunodeficiency virus 1), Q9YQ12, UniProt Q9YQ12, entry or part of it G48V: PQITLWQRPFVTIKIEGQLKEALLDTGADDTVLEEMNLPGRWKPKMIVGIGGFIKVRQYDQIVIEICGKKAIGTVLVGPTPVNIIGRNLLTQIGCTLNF
Protease (Human immunodeficiency virus 1), Q9YQ12, UniProt Q9YQ12, entry or part of it V82A: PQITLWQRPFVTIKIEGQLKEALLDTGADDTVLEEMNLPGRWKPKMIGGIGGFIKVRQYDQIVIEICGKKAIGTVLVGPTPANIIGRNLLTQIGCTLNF
Protease (Human immunodeficiency virus 1), Q9YQ12, UniProt Q9YQ12, entry or part of it V82F: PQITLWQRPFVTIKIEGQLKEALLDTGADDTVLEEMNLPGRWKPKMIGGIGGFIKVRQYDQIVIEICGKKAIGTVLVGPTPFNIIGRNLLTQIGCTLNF

Tests used:
Details in all cases: dose 100.0 nM
[1] = system: Protease (Human immunodeficiency virus 1), Q9YQ12 [G48V]
[2] = system: Protease (Human immunodeficiency virus 1), Q9YQ12 [V82A]
[3] = system: Protease (Human immunodeficiency virus 1), Q9YQ12 [V82F]

Measured: inhibition

COC(=O)[C@@H](NC(=O)OCc1cn([C@@H](Cc2ccccc2)[C@H](O)CN(CC(C)C)S(=O)(=O)c2ccc(OC)cc2)nn1)c1ccccc1
> 50%: all assays above

COc1ccc(S(=O)(=O)N(CC(C)C)C[C@@H](O)[C@H](Cc2ccccc2)n2cc(CNC(=O)c3ccncc3)nn2)cc1
> 50%: all assays above
